Anti-infective test results gathered from many reports (values: NIAID ChemDB through PubChem).

Common to all: growth or infection tests; organism: Mycobacterium tuberculosis

An empty or dashed field is not shown.

SMILES	method	setting	strain	tested at	cells	changes	endpoint	result
CC(=O)c1c(C)n([O-])c2ccccc2[n+]1=O	BACTEC		H37Rv		VERO		MIC	3.13 µg/mL
Cc1ccc2oc(=O)n(-c3cccc(Cl)c3)c(=S)c2c1		21 d	My 331/88				MIC	0.5 µM
CO[C@H]1/C=C/O[C@@]2(C)Oc3c(C)c(O)c4c(O)c(c(/C=N/N5CCN(C/C=C/c6ccccc6)CC5)c(O)c4c3C2=O)NC(=O)/C(C)=C\C=C\[C@H](C)[C@H](O)[C@@H](C)[C@@H](O)[C@@H](C)[C@H](OC(C)=O)[C@@H]1C			2237				MBC	0.5 µg/mL
CC(=O)c1c(COc2ccc([N+](=O)[O-])cc2)n([O-])c2ccccc2[n+]1=O	BACTEC		H37Rv	6.25 µg/mL	VERO		inhibition	97%
O=c1oc2ccc(-c3ccccc3)cc2c(O)c1N=Nc1ccccc1[N+](=O)[O-]	resazurin		H37Rv				MIC	<6.25 µg/mL
C[C@@H]1CN(c2c(F)c(N)c3c(=O)c(C(=O)O)cn(C4CC4)c3c2F)C[C@H](C)N1			CSU20				MIC	≤0.125 µg/mL
NC1=NN(c2ccccc2)C(=O)C1/C(=N/NC(=O)c1cc2ccccc2cc1O)C(=O)Nc1ccc(Cl)cc1	resazurin		H37Rv	6.25 µg/mL			inhibition	31%
CC(=O)Nc1ccc(C(=O)N/N=C/c2ccc(O)cc2)cc1							MIC	>40 µg/mL
CN(C)c1ccc(NC2=C(Cl)C(=O)C(Nc3ccc(N(C)C)cc3)=C(Cl)C2=O)cc1	resazurin		H37Rv	6.25 µg/mL			inhibition	-19%
FC(F)(F)c1ccc(-n2c(=S)oc3ccc(Br)cc3c2=S)cc1		21 d	My 331/88				MIC	4 µM
CC(=O)c1c(C)[nH]c(C(=O)N/N=C/c2ccc(C)cc2)c1C	resazurin		H37Rv	6.25 µg/mL			inhibition	92%
O=c1[nH]n(-c2ccccc2)c(=O)c2ccccc12							MIC	>200 µg/mL
O=C(O)c1cn(C2CC2)c2c(F)c(N3CCSCC3)c(F)cc2c1=O			CSU11				MIC	2 µg/mL
NNC(=O)c1ccncc1			Isolate R0				MIC	0.031 µg/mL
CO[C@H]1/C=C/O[C@@]2(C)Oc3c(C)c(O)c4c(O)c(c(/C=N/N5CCN(C)CC5)c(O)c4c3C2=O)NC(=O)/C(C)=C\C=C\[C@H](C)[C@H](O)[C@@H](C)[C@@H](O)[C@@H](C)[C@H](OC(C)=O)[C@@H]1C	broth dilution		Clinical isolate 10367				MIC	≤0.1 µM
NNC(=O)COc1ccc(Cl)cc1Cl							MIC	200 µg/mL
CC(C)Cn1c(-c2ccc(O)cc2)cs/c1=N\NC(=O)COc1cnccn1			H37Rv				MIC	12 µg/mL
CCc1nc2ccccc2n1CCCSc1ccc(C)cc1	turbidity / fluorescence		H37Rv				MIC99	4.5 µM
CC1CN(c2c(F)cc3c(=O)c(C(=O)O)cn(C4CC4)c3c2F)CC(C)N1			CSU25				MIC	≤0.125 µg/mL
CC1=NNC(=O)C2CCCCC12							MIC	>10 µg/mL
CCCCNC(=S)NNC(=O)COc1cnccn1			H37Rv				MIC	56 µg/mL
CO[C@H]1/C=C/O[C@@]2(C)Oc3c(C)c(O)c4c(O)c(c5c(c4c3C2=O)NC2(CCN(CC(C)C)CC2)N=5)=NC(=O)/C(C)=C\C=C\[C@H](C)[C@H](O)[C@@H](C)[C@@H](O)[C@@H](C)[C@H](OC(C)=O)[C@@H]1C			CSU12				MIC	≤0.125 µg/mL
C/C=N/NC(=O)c1ccc(OCC)cc1							MIC	40 µg/mL
O=c1oc2nc(-c3ccccc3)[nH]c(=O)c2c(O)c1Cc1ccccc1	BACTEC		H37Rv				MIC bound	>12.5 µg/mL
O=c1[nH]c2cc([N+](=O)[O-])ccc2c(O)c1N=Nc1ccc(Cl)c(F)c1	resazurin		H37Rv				MIC	<6.25 µg/mL
Cc1nnc2sc(-c3cccc(Cl)c3)nn2c1=O	resazurin		H37Rv				MIC bound	>6.25 µg/mL
CCOc1ccc(C(=O)N/N=C(/C)CCC(=O)O)cc1							MIC	200 µg/mL
CCc1nc2ccc(C)cc2n1CCCCNc1cccc(Cl)c1	turbidity / fluorescence		H37Rv				MIC99	2.1 µM
CCOc1ccc(-n2c(-c3ccc(OC)cc3)cs/c2=N\NC(=O)COc2cnccn2)cc1			H37Rv				MIC	14 µg/mL
CCC1CN(c2c(F)cc3c(=O)c(C(=O)O)cn(C4CC4)c3c2OC)CCN1			51 (RFP-resistant)				MIC	1 µg/mL
CCc1nc2ccc(C)cc2n1CCCSc1ccc(OC)cc1	turbidity / fluorescence		H37Rv			QcrB M342T	MIC90	98 µM
O=c1[nH]c2c([N+](=O)[O-])cccc2c(O)c1N=Nc1cccc(Cl)c1	resazurin		H37Rv	6.25 µg/mL			inhibition	82%
NNC(=O)c1ccncc1			PMH29				MIC	0.025 µg/mL
O=C1CC2(C(=O)O1)C1C(=O)OC(=O)C1C1C=CC=NN12	BACTEC		H37Rv				MIC bound	>12.5 µg/mL
CC1COc2c(N3CCN(C)CC3)c(F)cc3c(=O)c(C(=O)O)cn1c23	broth dilution		DK97A				MIC	0.5 µg/mL
CC1COc2c(N3CCN(C)CC3)c(F)cc3c(=O)c(C(=O)O)cn1c23	agar		SMI12				MIC	1 µg/mL
O=C(COc1cnccn1)N/N=c1\scc(-c2ccc(F)cc2)n1-c1ccc(Cl)cc1[N+](=O)[O-]			H37Rv				MIC	9 µg/mL
CCc1nc2ccc(C)cc2n1CCCCSc1ccc(OC)cc1	turbidity / fluorescence		H37Rv			QcrB M342T	MIC90	98 µM
CC(C)N1C(=O)CS/C1=N\NC(=O)COc1cnccn1			H37Rv				MIC	191 µg/mL
O=C([C@@H](O)CO)N1CC=C(c2c(F)cc(N3C[C@H](COc4ccon4)OC3=O)cc2F)CC1			AZD5847-resistant 4.1			T460C Cys154Arg	MIC	16 µg/mL
O=C(NC(=O)Nc1ccc(Cl)cc1)NC(=O)c1ccccc1F	BACTEC		H37Rv		VERO		MIC	3.13 µg/mL
CC(=O)c1c(C)n([O-])c2cc(C)c(C)cc2[n+]1=O	BACTEC		H37Rv		VERO		EC50	<6.25 µg/mL
Cc1c(N2C[C@@H](N)C3(CC3)C2)c(F)cc2c(=O)c(C(=O)O)cn([C@@H]3C[C@@H]3F)c12			43 (RFP-susceptible)				MIC	0.1 µg/mL
CCc1nc2ccccc2n1CCCNc1ccc(C)cc1	turbidity / fluorescence		H37Rv				MIC99	0.12 µM
O=C(NN=C1CCCC1)c1ccccc1							MIC	1 µg/mL
CC(=O)NC[C@H]1CN(c2ccc(N3CCN(c4ccc([N+](=O)[O-])s4)CC3)c(F)c2)C(=O)O1			V-591				MIC	0.5 µg/mL
O=S1(=O)CC2C3C=CC(O3)C21	BACTEC		H37Rv	12.5 µg/mL			inhibition	15%
O=C(N/N=C/c1ccc2c(c1)OCO2)c1ccccc1Cl							MIC	100 µg/mL
O=[N+]([O-])c1cc2cccc([N+](=O)[O-])c2o1	resazurin		H37Rv				MIC bound	<6.25 µg/mL
CC(C)n1c(-c2ccc(Br)cc2)cs/c1=N\NC(=O)COc1cnccn1			H37Rv				MIC	8.1 µg/mL
Cc1c(C(=O)c2ccccc2)[n+](=O)c2ccccc2n1[O-]	BACTEC		H37Rv		VERO		EC50	<6.25 µg/mL
Fc1cccc(-n2c(=S)oc3ccc(F)cc3c2=S)c1		21 d	My 331/88				MIC	16 µM
CO/C(C)=C1/NC(=O)[C@H]([C@@H](C)O)NC(=O)c2csc(n2)-c2cc(O)c(-c3nc(C(=O)NNC(=O)c4cc(-c5ccco5)[nH]n4)cs3)nc2-c2csc(n2)[C@@H]2COC(=O)c3c4c5c(cccc5n3O)COC(=O)[C@@H](O[C@H]3C[C@](C)(O)[C@H](N(C)C)[C@H](C)O3)[C@@H](OC4)[C@H](NC(=O)c3csc1n3)c1nc(cs1)C(=O)N2	broth dilution		H37Rv				MIC	>100 µM
Cc1ccc(NC(=O)Oc2cc(C)c(Br)c(C)c2)cc1[N+](=O)[O-]	BACTEC		H37Rv	12.5 µg/mL			inhibition	17%
CO/C(C)=C1/NC(=O)[C@H]([C@@H](C)O)NC(=O)c2csc(n2)-c2cc(O)c(-c3nc(C(=O)NCCCN4CCOCC4)cs3)nc2-c2csc(n2)[C@@H]2COC(=O)c3c4c5c(cccc5n3O)COC(=O)[C@@H](O[C@H]3C[C@](C)(O)[C@H](N(C)C)[C@H](C)O3)[C@@H](OC4)[C@H](NC(=O)c3csc1n3)c1nc(cs1)C(=O)N2	broth dilution		Clinical isolate 30425				MIC	≤2.5 µM
Cc1[nH]nc(-c2cccnc2)c1N=NN1CCC(C(N)=O)CC1			H37Rv		VERO		MIC	1.56 µg/mL
NNC(=O)c1ccncc1	broth dilution		Erdman				MIC	0.06 µg/mL
NC(=O)c1cnccn1			T494/NIACIN+				MIC	>2048 µg/mL
CSc1nc(-c2ccccc2)c(C#N)c(=O)[nH]1	BACTEC		H37Rv	12.5 µg/mL			inhibition	0%
O=C(N/N=C/c1ccc([N+](=O)[O-])cc1)c1ccccc1							MIC	1 µg/mL
COC1/C=C\C=C(\C)C(=O)NC2=CC(=O)C(=O)C(=C2O)CC(C)CC(OC)C(O)C(C)/C=C(/C)C1OC(N)=O	BACTEC		H37Rv				MIC bound	>12.5 µg/mL
Cc1cc2c(cc1C)[n+](=O)c(C(=O)CBr)c(CBr)n2[O-]	BACTEC		H37Rv				EC50	>6.25 µg/mL
CN1OC(=O)OC2(CCCCC2)C1=O	resazurin		H37Rv				MIC bound	>6.25 µg/mL
CC[C@@H](CO)NCCN[C@@H](CC)CO	broth dilution / resazurin		MDR17				MIC	8 µg/mL
COCCCn1c2c([n+](Cc3ccc([N+](=O)[O-])cc3)c1C)C(=O)c1ccccc1C2=O	resazurin		H37Rv		VERO		MIC	1.56 µg/mL
CCc1nc2ccccc2n1CCCCOc1ccc(C)c(C)c1	turbidity / fluorescence		H37Rv			QcrB M342T	MIC90	>100 µM
Cc1ccc(NCCNCC(C)(C)O)c2c(=O)c3ccccc3sc12	BACTEC		H37Rv	12.5 µg/mL			inhibition	100%
CO[C@H]1/C=C/O[C@@]2(C)Oc3c(C)c(O)c4c(O)c(c5c(c4c3C2=O)NC2(CCN(CC(C)C)CC2)N=5)=NC(=O)/C(C)=C\C=C\[C@H](C)[C@H](O)[C@@H](C)[C@@H](O)[C@@H](C)[C@H](OC(C)=O)[C@@H]1C			2831 (rifampin-sensitive)				MBC	0.05 µg/mL
CNNC(=O)C(=O)NNC	BACTEC		H37Rv				MIC bound	>12.5 µg/mL
NNC(=O)c1ccncc1	broth dilution		Clinical isolate 11677				MIC	≤0.2 µM
CCO/C=C1\N=C(C(O)(c2ccc(Cl)cc2)c2ccc(Cl)cc2)OC1=O	BACTEC		H37Rv				MIC bound	>12.5 µg/mL
NC1CN(c2c(F)cc3c(=O)c(C(=O)O)cn(C4CC4)c3c2Cl)CC12CC2			H37Rv (RFP-susceptible)				MIC	0.1 µg/mL
NC(N)=NC(N)=Nc1ccc(Cl)c(Cl)c1	BACTEC		H37Rv	6.25 µg/mL			inhibition	24%
C=C(NC(=O)c1csc(-c2nc3c(cc2O)-c2nc(cs2)C(=O)N[C@@H]([C@@H](C)O)C(=O)N/C(=C(\C)OC)c2nc(cs2)C(=O)N[C@@H]2c4nc(cs4)C(=O)N[C@@H](COC(=O)c4c5c6c(cccc6n4O)COC(=O)[C@@H](O[C@H]4C[C@](C)(O)[C@H](N(C)C)[C@H](C)O4)[C@H]2OC5)c2nc-3cs2)n1)C(N)=O	broth dilution		Clinical isolate 10975			Rifampicin- and isoniazid-resistant	MIC	≤25 µM
Cl.Cl.O=S(=O)(Nc1cccc(C2=NCCN2)c1)c1ccc2c(S(=O)(=O)Nc3cccc(C4=NCCN4)c3)cccc2c1	BACTEC		H37Rv				MIC	>128 µg/mL
COc1ccc2oc(=S)n(-c3cccc(Cl)c3)c(=S)c2c1		14 d	My 331/88				MIC	16 µM
Nc1nc(N)c2nc3c(nc2n1)CCCC3	BACTEC		H37Rv	12.5 µg/mL			inhibition	0%
CO[C@H]1/C=C/O[C@@]2(C)Oc3c(C)c(O)c4c(=O)c(c5oc6cc(N7CCN(C(C)C)CC7)cc(=O)c6nc5c4c3=C2O)NC(=O)/C(C)=C\C=C\[C@H](C)[C@H](O)[C@@H](C)[C@@H](O)[C@@H](C)[C@H](OC(C)=O)[C@@H]1C			2831 (rifampin-sensitive)				MIC	0.025 µg/mL

The first 8 rows once more:

SMILES	method	setting	strain	tested at	cells	changes	endpoint	result
CC(=O)c1c(C)n([O-])c2ccccc2[n+]1=O	BACTEC		H37Rv		VERO		MIC	3.13 µg/mL
Cc1ccc2oc(=O)n(-c3cccc(Cl)c3)c(=S)c2c1		21 d	My 331/88				MIC	0.5 µM
CO[C@H]1/C=C/O[C@@]2(C)Oc3c(C)c(O)c4c(O)c(c(/C=N/N5CCN(C/C=C/c6ccccc6)CC5)c(O)c4c3C2=O)NC(=O)/C(C)=C\C=C\[C@H](C)[C@H](O)[C@@H](C)[C@@H](O)[C@@H](C)[C@H](OC(C)=O)[C@@H]1C			2237				MBC	0.5 µg/mL
CC(=O)c1c(COc2ccc([N+](=O)[O-])cc2)n([O-])c2ccccc2[n+]1=O	BACTEC		H37Rv	6.25 µg/mL	VERO		inhibition	97%
O=c1oc2ccc(-c3ccccc3)cc2c(O)c1N=Nc1ccccc1[N+](=O)[O-]	resazurin		H37Rv				MIC	<6.25 µg/mL
C[C@@H]1CN(c2c(F)c(N)c3c(=O)c(C(=O)O)cn(C4CC4)c3c2F)C[C@H](C)N1			CSU20				MIC	≤0.125 µg/mL
NC1=NN(c2ccccc2)C(=O)C1/C(=N/NC(=O)c1cc2ccccc2cc1O)C(=O)Nc1ccc(Cl)cc1	resazurin		H37Rv	6.25 µg/mL			inhibition	31%
CC(=O)Nc1ccc(C(=O)N/N=C/c2ccc(O)cc2)cc1							MIC	>40 µg/mL

A number after MIC or MFC names an inhibition level or a share of isolates. ECn is the concentration giving n% inhibition of infection, replication or growth. Inhibition is in % at the dose shown (toxicity tests: loss of growth or viability). MIC bound comes from a single tested concentration. Rows are shuffled and stem from different studies.